Tested on: HSV-1
Experiment: cytopathic effects (CPE) assay, antiviral activity against HSV-1 in Hep-2 cells
Assay type: cell-based, Herpes Simplex Virus 1
Conditions: selectivity index (TC50/IC50)
Protocol: The antiviral activities against HSV-1 were evaluated by a cytopathic effects (CPE) assay. Hep-2 monolayer cells were cultured with trypsin enzyme-digesting technique and transferred to 96-well plates. The HSV-1 virus was seeded in Hep-2 cells in 96-well plates, with 2% RPMI-1640 medium, and incubated at 37° C., 5% CO2. After more than 90% lesions, the virus-infected cells were repeatedly frozen and thawed 3 times, centrifuged, quantitative packed and stored at −80° C. Each tested compound was dissolved in 10 μl DMSO to make a homogeneous solution and the solution was diluted 10 times by half-and-half dilution with 2% RPMI-1640 medium. The gradient solution was added to the infected cells incubated in 96-well plates, Ribavirin was used as positive control. Normal cells were used as blank control. Infected cells were used as negative control. All samples were incubated at 37° C., 5% CO2. Pathological changes were observed once every hour, for 24 h. After 90% lesions in negative control, 1% neutral red was added after removal of liquid in 96-well plates. The OD value was determined at 540 nm. IC50 values of tested compounds were calculated by Reed-Muench methods.

Row | Compound | SI
1 | C=C(C)[C@@H]1CC[C@](C)(/C=C/c2ccc3c(c2O)[C@@](O)(c2ccccc2)[C@H](OC)C(=O)N3)O1 | 955
2 | CO[C@@H]1C(=O)Nc2ccc(/C=C/[C@]3(C)CC[C@H](O)[C@@H](C)C3)c(O)c2[C@@]1(O)c1ccccc1 | 179
3 | NC(=O)c1ncn([C@@H]2O[C@H](CO)[C@@H](O)[C@H]2O)n1 [Ribavirin, reference compound] | >128

Source: patent publication US10639303B2, “Alkaloids and their preparation and application as anti-HSV-1 agents” (OCEAN UNIVERSITY OF CHINA, priority 2015, dated 2020)
